Results of unrelated studies side by side (data: NIAID ChemDB).

Common to all: enzyme or target tests; species: HIV-1; target: Integrase; read-out: IC50

Two numbers with a dash give a range or band.

SMILES | strain | read by | value
O=S(=O)(O)Oc1cc2c(ccn2S(=O)(=O)O)c(Cl)c1O | - | - | 156 µM
Cc1cc2c(c3c1[nH]c1cc(Cl)c(O)cc13)C(=O)N(CCN(C)C)C2=O | - | ELISA / strand transfer / luminescence | 5 µM
CNC(=O)c1cn2c(c1O)C(=O)N(Cc1ccc(F)c(F)c1)CC2 | - | strand transfer | <1.5 µM
O=C1c2c(O)c(=O)c(-c3ccccn3)cn2CCN1Cc1ccc(F)c(Cl)c1 | - | ELISA | <0.01 µM
O=C(O)/C(O)=C/C(=O)N(Cc1ccc(F)cc1)c1ccc(F)cc1 | - | strand transfer | <70 µM
NCCCCCC(=O)Nc1nc(C(=O)Nc2nc(C(=O)NC[C@H](O)CO)cs2)cs1 | - | 3′ processing | 350 µM
O=P(O)(O)C(CNc1ccccc1)P(=O)(O)O | - | 3′ processing / gel | >100 µM
NCCCCCC(=O)Nc1nc(C(=O)Nc2nc(C(=O)Nc3nc(C(=O)NC[C@H](O)CO)cs3)cs2)cs1 | - | 3′ processing | 30 µM
CN(CCCc1ccc(F)cc1)C(=O)/C=C(\O)C(=O)O | - | strand transfer | <70 µM
COc1cc2c(c3c1[nH]c1ccccc13)C(=O)N(CCN(C)C)C2=O | - | ELISA / strand transfer / luminescence | >100 µM
CN(C)CCN1C(=O)c2ccc3c(c2C1=O)c1cc(O)ccc1n3C | - | strand transfer | >100 µM
CCOC(=O)c1cn2c(c1O)C(=O)N(Cc1ccc(F)cc1)CC2 | - | strand transfer | <0.7 µM
COC(=O)C1CN(Cc2ccc(Cl)c(Cl)c2)C(=O)c2c(O)c(=O)ccn21 | - | ELISA | 0.01–0.1 µM
COc1ccc2c(c1)c1c3c(ccc1n2C)C(=O)N(CCN(C)C)C3=O | - | strand transfer | >100 µM
O=CCCc1ccc(C2=C(c3ccc(CCC=O)o3)C(=O)N(Cc3ccccc3)C2=O)o1 | - | 3′ processing | 29 µM
CCOC(=O)c1cn2c(c1O)C(=O)N(Cc1ccc(F)c(Cl)c1)CC2 | - | strand transfer | <1.5 µM
O=C(c1cn2ccn(Cc3cccc(Cl)c3)c(=O)c2c(O)c1=O)N1CCCC1 | - | ELISA | 0.01–0.1 µM
C=CCOc1ccc(C[C@H](NC(=O)c2ccccc2OCc2ccccc2)C(=O)N[C@@H](CCCCN)C(=O)NCCCC(=O)OC)cc1 | - | strand transfer | 5 µM
CC(=O)c1cc2cc([N+](=O)[O-])c([N+](=O)[O-])cc2nc1C | - | 3′ processing / gel | >100 µM
CN(C)CCN1C(=O)c2cc(-c3ccccc3)c3c(c2C1=O)c1ccccc1n3C | - | ELISA / strand transfer / luminescence | 57 µM
CN(Cc1csc2ccc(Cl)cc12)C(=O)/C=C(\O)C(=O)O | - | strand transfer | <70 µM
Cc1cc2c(c3c1[nH]c1cc(F)c(O)cc13)C(=O)N(CCN(C)C)C2=O | - | strand transfer | >100 µM
CNC(=O)c1csc(NC(=O)c2csc(NC(=O)CCCCCN)n2)n1 | - | 3′ processing | 70 µM
Cn1[nH]c2c(c(=O)c1=O)C(=O)N(Cc1cccc(Cl)c1)CC2 | - | ELISA | 0.1–1 µM
CN(C)CCN1C(=O)c2cc(C3CC3)c3[nH]c4ccc(O)cc4c3c2C1=O | - | ELISA / strand transfer / luminescence | 20.51 µM
COc1cccc2c1c(/C(O)=C\C(=O)C(=O)O)cn2Cc1ccc(F)cc1 | IIIB | ELISA | 0.08 µM
N#Cc1cc2cc(Sc3ccccc3)c([N+](=O)[O-])cc2n(O)c1=N | - | 3′ processing / gel | >100 µM
CC(C)(C)OC(=O)N1CCC(NC(=O)C(=O)/C=C(\O)c2ccc(F)cc2)CC1 | - | 3′ processing | >100 µM
O=C(Cc1nc(=O)n(O)c2ncccc12)NCc1ccccc1 | - | strand transfer | 0.005 µM
CCCCCCCCCCCCCCCC(=O)NC1C(COP(=O)(O)OC2C(O)C(COP(=O)(O)OC3CC(CO)OC3n3cnc4c(N)ncnc43)OC2n2cnc3c(N)ncnc32)OC(n2cnc3c(N)ncnc32)C1O | - | - | >1000 µM
O=C(/C=C(\O)c1ccccc1Cl)C(=O)N1CCN(C(=O)C(=O)/C=C(\O)c2ccccc2Cl)CC1 | - | 3′ processing | >100 µM
NCCCCCC(=O)Nc1nc(C(=O)Nc2nc(C(=O)Nc3nc(C(=O)Nc4nc(C(=O)NCC(O)CO)cs4)cs3)cs2)cs1 | - | 3′ processing | 2.2 µM
CCOC(=O)C(Cc1ccccc1)c1ccc(N2C(=O)C(c3ccc(C(=O)O)o3)=C(c3ccc(C(=O)O)o3)C2=O)cc1 | - | 3′ processing | 15 µM
CN(C)CCCNC(=O)c1csc(NC(=O)c2csc(NC(=O)CCCCCNC(=O)CN(CCN(CC(=O)O)CC(=O)O)CC(=O)O)n2)n1 | - | 3′ processing | 860 µM
O=C(O)CNC(=O)/C(O)=C/C(=O)N(Cc1ccc(F)cc1)Cc1ccc(F)cc1 | - | strand transfer | <70 µM
O=C1c2ccc3c(c2C(=O)N1Cc1ccccc1)c1ccccc1n3-c1ccccc1 | - | ELISA / strand transfer / luminescence | >100 µM
CN(C)CCCNC(=O)c1csc(NC(=O)c2csc(NC(=O)c3csc(NC(=O)CCCCCNC(=O)CN(CCN(CC(=O)O)CC(=O)O)CC(=O)O)n3)n2)n1 | - | 3′ processing | 10 µM
CC1=C(C#N)c2nc(N)c(C#N)c(C)c2/C1=C/c1ccc(-c2ccc(O)c(C(=O)O)c2)o1 | - | 3′ processing | 9 µM
CC(C)(C)c1cc(=O)c(O)c2n1CCN(Cc1ccc(Cl)c(Cl)c1)C2=O | - | ELISA | 0.01–0.1 µM
O=C(O)/C(O)=C/C(=O)N(CCCc1ccccc1Cl)Cc1ccc(F)cc1 | - | strand transfer | <70 µM
CCC(C)(C)C(=O)c1cn2c(c(O)c1=O)C(=O)N(Cc1cccc(Cl)c1)CC2 | - | ELISA | 0.01–0.1 µM
COc1cc2[nH]c3ccc4c(c3c2cc1OC)C(=O)N(CCN(C)C)C4=O | - | strand transfer | >100 µM
COc1cc2c(c3c1[nH]c1ccc(O)cc13)C(=O)N(CCN(C)C)C2=O | - | ELISA / strand transfer / luminescence | 25.01 µM
CC(C)Cc1cn(Cc2ccc(Cl)c(Cl)c2)c(=O)c2c(O)c(=O)ccn12 | - | ELISA | <0.01 µM
NC(Cc1ccccc1)(P(=O)(O)O)P(=O)(O)O | - | 3′ processing / gel | >100 µM
CNC(=O)c1csc(NC(=O)c2csc(NC(=O)c3csc(NC(=O)CCCCCN)n3)n2)n1 | - | 3′ processing | 9 µM
CC1CN(Cc2ccc(Cl)c(Cl)c2)C(=O)c2c(O)c(=O)ccn21 | - | ELISA | 0.01–0.1 µM
O=P(O)(O)C(O)(Cc1ccc(Cl)c(Cl)c1)P(=O)(O)O | - | 3′ processing / gel | 7 µM
CN1CCn2cc(C(=O)NCc3ccc(F)cc3)c(O)c2C1=O | - | strand transfer | <0.7 µM
C=CCOc1ccc(C[C@H](NC(C)=O)C(=O)N[C@@H](CCCCN)C(=O)Nc2cccc(CC(=O)OC)c2)cc1 | - | strand transfer | 9 µM
CN(C)CCN1C(=O)c2ccc3c(c2C1=O)c1cc(O)ccc1n3C | - | ELISA / strand transfer / luminescence | 5.93 µM
COCCN(Cc1ccc(F)cc1)C(=O)/C=C(\O)C(=O)O | - | strand transfer | <70 µM
O=P(O)(O)C(CNc1ccc(I)cc1)P(=O)(O)O | - | 3′ processing / gel | >100 µM
CN(C)CCN1C(=O)c2cc(-c3ccccc3)c3[nH]c4ccccc4c3c2C1=O | - | ELISA / strand transfer / luminescence | >100 µM

ICn is the concentration giving n% inhibition. Neighbouring rows are from separate reports. Blank or dashed fields: not listed here.